## Genome-wide point mutation profile of HIV-1: Gag

Protein: Gag of HIV-1 NL4-3, numbered from its first residue. Gag is numbered as the whole polyprotein.
"Other frame" gives the effect on an overlapping gene as the source lists it; other overlaps (genes, RNA elements) are not shown.

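Seven fragments of pNL4-3 were mutated by error-prone PCR, and each virus pool was passaged in CEM T cells. Sequencing gave the RC index: frequency after two rounds over frequency in the input plasmid.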

Values are the RC index; higher means better tolerated. The authors read about 0.1 or less as lethal, 0.1-0.2 as attenuated and 0.2 or more as tolerated. A change reads original residue, position, new residue. Input reads are the counts in the plasmid library.

mutation,base,region,other frame,input reads,RC index
Q386K,C1945A,NC p7,none,48,0.459
N327K,C1770G,CA,none,104,0.0218
N206K,T1407A,CA,none,430,0.0550
K30R,A878G,MA,none,179,0.0679
S38R,C903A,MA,none,156,0.0520
G435V,G2093T,p1,none,478,0.0532
E245D,A1524T,CA,none,665,0.225
G381S,G1930A,NC p7,none,201,0.133
I19F,A844T,MA,none,398,0.0498
Q141E,C1210G,CA,none,46,0.0477
L334F,A1791T,CA,none,81,0.260
V168L,G1291T,CA,none,90,0.0592
H421R,A2051G,NC p7,none,492,0.0431
M367I,G1890A,p2,none,298,0.407
F393S,T1967C,NC p7,none,175,0.108
G340E,G1808A,CA,none,137,0.179
V84F,G1039T,MA,none,398,0.0485
E345V,A1823T,CA,none,216,0.0162
S234R,T1491G,CA,none,53,0.122
C416Y,G2036A,NC p7,none,617,0.392
Q127K,C1168A,MA,none,144,0.153
I267F,A1588T,CA,none,360,0.152
K15N,A834C,MA,none,110,0.0360
A179P,G1324C,CA,none,183,0.0776
T97S,A1078T,MA,none,159,0.0202
L61Q,T971A,MA,none,422,0.0432
A115T,G1132A,MA,none,499,0.180
Q28K,C871A,MA,none,50,0.324
I247V,A1528G,CA,none,345,0.157
I247K,T1529A,CA,none,1032,0.0400
K114Q,A1129C,MA,none,274,0.00971
I266T,T1586C,CA,none,188,0.105
M187I,G1350C,CA,none,162,0.0548
N372S,A1904G,p2,none,252,0.0277
V168L,G1291C,CA,none,52,0.0341
V135E,T1193A,CA,none,151,0.0436
I378T,T1922C,NC p7,none,100,0.157
L175S,T1313C,CA,none,240,0.148
N137I,A1199T,CA,none,144,0.0458
Q246L,A1526T,CA,none,1051,0.0413
G56S,G955A,MA,none,93,0.261
V94I,G1069A,MA,none,473,0.143
D235N,G1492A,CA,none,287,0.180
M1T,T791C,MA,none,316,0.0489
G71R,G1000C,MA,none,216,0.0446
L21I,T850A,MA,none,449,0.0353
K103T,A1097C,MA,none,143,0.0225
S54L,C950T,MA,none,210,0.251
E74D,A1011C,MA,none,35,0.0918
K26E,A865G,MA,none,368,0.143
M228L,A1471T,CA,none,271,0.0635
H219Y,C1444T,CA,none,688,0.0875
A360T,G1867A,CA,none,579,0.101
K27R,A869G,MA,none,208,0.0487
R444M,G2120T,p1 / p6*,p6* K4N,270,0.126
T240N,C1508A,CA,none,299,0.0503
M317L,A1738T,CA,none,180,0.0377
Q287L,A1649T,CA,none,608,0.0183
P23T,C856A,MA,none,128,0.0950
Q127L,A1169T,MA,none,187,0.0705
K32N,A885C,MA,none,53,0.0765
S111R,T1122A,MA,none,488,0.104
T190A,A1357G,CA,none,278,0.0319
R229K,G1475A,CA,none,256,0.781
K272I,A1604T,CA,none,515,0.158
I273M,A1608G,CA,none,262,0.101
N153T,A1247C,CA,none,92,0.0239
I60L,A967C,MA,none,62,0.0980
N80I,A1028T,MA,none,392,0.0246
Q65L,A983T,MA,none,323,0.149
M200I,G1389A,CA,none,780,0.179
A374D,C1910A,p2,none,213,0.0369
L343Q,T1817A,CA,none,192,0.0122
E12D,A825T,MA,none,425,0.0409
A364D,C1880A,p2,none,176,0.0475
I147K,T1229A,CA,none,277,0.0476
W249G,T1534G,CA,none,106,0.102
A349T,G1834A,CA,none,224,0.151
Q145L,A1223T,CA,none,220,0.0399
M377T,T1919C,p2,none,276,0.0171
Q422R,A2054G,NC p7,none,529,0.0561
W212R,T1423C,CA,none,276,0.0389
I104V,A1099G,MA,none,164,0.0196
C416R,T2035C,NC p7,none,389,0.0545
N189I,A1355T,CA,none,289,0.0430
A179S,G1324T,CA,none,191,0.0744
L78I,T1021A,MA,none,307,0.0524
V159A,T1265C,CA,none,391,0.0694
N385S,A1943G,NC p7,none,205,0.00767
S368R,C1893G,p2,none,169,0.0165
P149R,C1235G,CA,none,81,0.0271
Q108H,A1113C,MA,none,76,0.0846
R286K,G1646A,CA,none,382,0.215
P48L,C932T,MA,none,231,0.0702
A115S,G1132T,MA,none,39,0.0563
T81R,C1031G,MA,none,127,0.0759
V46A,T926C,MA,none,201,0.101
L31I,C880A,MA,none,52,0.351
K272N,A1605T,CA,none,238,0.0184
W316R,T1735A,CA,none,210,0.0431
Q422H,A2055T,NC p7,none,356,0.0298
G140A,G1208C,CA,none,98,0.0448
I285K,T1643A,CA,none,375,0.0296
H89R,A1055G,MA,none,343,0.0656
R384K,G1940A,NC p7,none,137,16.8
K415E,A2032G,NC p7,none,353,0.0961
H358R,A1862G,CA,none,483,0.00866

The last 11 entries again:

V46A (base T926C, region MA, input reads 201) gave 0.101.
L31I (base C880A, region MA, input reads 52) gave 0.351.
K272N (base A1605T, region CA, input reads 238) gave 0.0184.
W316R (base T1735A, region CA, input reads 210) gave 0.0431.
Q422H (base A2055T, region NC p7, input reads 356) gave 0.0298.
G140A (base G1208C, region CA, input reads 98) gave 0.0448.
I285K (base T1643A, region CA, input reads 375) gave 0.0296.
H89R (base A1055G, region MA, input reads 343) gave 0.0656.
R384K (base G1940A, region NC p7, input reads 137) gave 16.8.
K415E (base A2032G, region NC p7, input reads 353) gave 0.0961.
H358R (base A1862G, region CA, input reads 483) gave 0.00866.

The authors read an index above 1 as above wild type (1.9% of all changes in the genome). Clones carried about five changes per kilobase, which can drag down the index of neutral changes. Nucleotide positions follow pNL4-3.

Reference: Al-Mawsawi et al. 2014, doi:10.1186/s12977-014-0124-6.